From article PMC12691590
For at least one entry, the source does not settle the construct or the ends of the probe.

Key:
Assay in all cases: EMSA
[1] = target: OpaR (Vibrio parahaemolyticus) (UniProt Q79YV4); details: recombinant protein; residues 1-204; probe letters rebuilt from the primers and the genome
[2] = system: TftR (TetR family) + OpaR; details: OpaR titrated at constant TftR, higher-molecular-weight complexes; recombinant protein; probe letters rebuilt from the primers and the genome
[3] = system: TftR (TetR family) (Vibrio parahaemolyticus); details: 0-400 nM TftR; recombinant protein; probe letters rebuilt from the primers and the genome

Row | Sequence | binding result [1] | binding result [2] | binding result [3]
1 | TAATTGGTGTTCTGGCCAATGGTAATTGAACGCCAAAAAAGAACGATAAAGATCAGAATTGACAATTTGTAATCCAACAATTTCCGCTTCCAGTTGCAGCGTATTCGTTTCTGGATGAAAGATGAAATGAACCTTCAAGTGATCATCAAAAGCTAAGCTTAGTTCATTGTCCGTCAAATGCAGTTCAGGCAAGCCTATTTGATGAGCAAACTTCTGTAAAACCTCATCGATAGTTTGGCGTGCTGACATAGAAACAGTCCTTTTGAGAATTTTATCGGGAAACATATTCGATATCGTGGGGTGTGTTTATCAATTTTGGTTGTTAGTTATTATATTTTGGCCGGAAACCCAGAATTGACTCCTTGCTTCTAATCTTACAAATGAGTGCTGGTGCATATAAAGATTAACGGTTATTAAATTCTATTATGGTGGGATTTTGGTTTATATCGACAAGCGATGAAGAATTAGAATTGTGTTATCTTAAAAATTAAATACTATGTTAATTACGTGTTGTACGTGGAACGTTATTGCTGTCCATCTGTAGAATAAATATAAGCCGAAAATTTAAACGTACACATAAGAATTTGTGTAAAAATAAATCATAATAAGACGATAAAAATAATTTATGGGAGCCTAAATGAAAAGCAGTAAGTGGGCCGGTCTTATCGGTTTAATGTTA (double strand) [PexsB] | binds |  | 
2 | TCCATCGTGTTGCCGTAGCTTGATGCCGTCATAAAATCAACTTGATGAGTCAGTTCAATAGCACGCGCTAGGTCGGCCATAAATACAAAAGAACCACGCAACAAGCCAACCAAAACTAGGTCTTCACTGCCTTGGTAACGCTCTGTAATTTGTTTGCCTAATTCACGAATTCGTTCCTGAACTTCTTGCTCAGAAATCATGACTTCTATTGTATGTTTCATACTGTGCTCAATTTAGTTTGTGGGTTGAGGTAGGTCGCACGCAAACGATCACCTAATCTTACGGCGTGTAGTGTATCACCACGAAGAGTGGGTTGAAAGTCACATCCTTTTGCGGAAAATTCTTGGGAGCGCTGCCAAATTTTCGAAAGTTTACAGCAAAACTTATCAATAATAATGACATTACTGTCTATAAATTATCCATCAGATGTTGACCTTGTGCATATGCACCATTACACTCATCACTGCTTAAAGCAATTATTAAAATAATCAATTAGGGGGTTACCCCCAACAACAACTCAAATGGCAAGGAAAATGGATATGGACTCAATTGCAAAGAGACCTAGAACTAGGCTTTCTCCTCTTAAACGTAAGCAACAACTCATGGAAATCGCGTTAGAAGTATTTGCACGCCGTGGTATTGGCCGTGGTGGTCACGCAGATATTG (double strand) [PopaR] |  | binds | binds
